Read-outs that look alike come from different tables or passages of the source.
Legend:
Human SARS-CoV-2 Alpha S = Human SARS-CoV-2 Alpha S (SARS-CoV-2 (Alpha variant)); experiment: flow cytometry SVNA: VHH-Fc inhibits S binding to ACE2 on Vero E6 cells
[1] = target: T1, Human SARS-CoV-2 Alpha (B.1.1.7) S (SARS-CoV-2 (Alpha, B.1.1.7)); experiment: SPR, VHH over immobilised S
[2] = target: T2, Human SARS-CoV-2 Beta (B.1.351) S (SARS-CoV-2 (Beta, B.1.351)); experiment: SPR, VHH over immobilised S
[3] = target: T1, Human SARS-CoV-2 Alpha (B.1.1.7) S; experiment: SPR, VHH over immobilised S; remark: listed apart in the source
[4] = target: T2, Human SARS-CoV-2 Beta (B.1.351) S; experiment: SPR, VHH over immobilised S; remark: listed apart in the source

Binder	IC50 (Human SARS-CoV-2 Alpha S)	Kd [1]	koff [1]	kon [1]	Kd [2]	koff [2]	kon [2]	Kd [3]	Kd [4]
NRCoV2-1d VHH-Fc (Fc fusion, bivalent VHH-Fc) EVQLVESGGGSVQPGGSLRLSCAASGSTLDYYAIGWFRQAPGKEREWVSSVSSSDGNTLYADSVKGRFTISRDNAKNTVYLQMNSLKAEDTAVYVCAADYSMRPFAVGRWHRDYEYWGQGTQVTVSS	6.1 nM								
NRCoV2-07 VHH-Fc (Fc fusion, bivalent VHH-Fc) QVQLVQSGGGLVQPGGSLRLSCAASGVTLDYYAIGWFRQAPGKEREAVSCISSNGRRNHYVASVRGRFTISRDNAKSTVYLQMNSLKPEDTAVYYCAAVQDVHGDNYYCTSPNEYNVWGQGTQVTVSS	5.7 nM								
NRCoV2-20 VHH-Fc (Fc fusion, bivalent VHH-Fc) EVQLQQSGGGLVQPGGSLRLSCAASGRTFSNYVVGWFRQAPQAPGKDHEFVAVISGSDTETYYADSVKGRFTISRDNAKNTVYLQMNSLKPEDTAVYYCAADRGMSYYYTRATEYYYWGQGTQVTVSS	5.2 nM								
NRCoV2-12 VHH-Fc (Fc fusion, bivalent VHH-Fc) EVQLQQSGGGLVQAGGSLRLSCAASGRTFRNYVMGWFRQAPQAPGKDHEFVAAISWGGTEIYYADSVKGRFTISRDNAKNTVYLQMNSLKPEDTAVYYCAADRGLSYYYTRTTEYNYWGQGTQVTVSS	5.2 nM								
NRCoV2-18 VHH-Fc (Fc fusion, bivalent VHH-Fc) EVQLVESGGGLVQAGGSLRLSCVASGITISGYNMAWWRQTRGKQTERVAFINSGGSTTYSDSVKGRFTISRDNGKNTAYLQMNSLNAEDTADYFCSLHTSHDYWGQGTQVTVSS	12.2 nM								
NRCoV2-MRed04 VHH-Fc (Fc fusion, bivalent VHH-Fc) EVQLVESGGGLVQPGRSLRLSCAASGNSFSISTMGWFRQAPGKERELVASIWSDTTTSYADSVKGRFTISTDNTRTKVYLQMSSLNPEDTAVYYCAADRGFVVRGQYDYWGQGTQVTVSS	6.4 nM								
NRCoV2-02 VHH-Fc (Fc fusion, bivalent VHH-Fc) EVQLVESGGGLVQAGGSLRLSCAASGFTFSNYAMNWVRQAPGKGLEWVSGISGRGDDTRYADSVKGRFTISRDNAKNTLFLQMRSLRPEDTGVYRCTKGPDLYYFGSGYSDRGQGTQVTVSS	4.2 nM								
NRCoV2-05 VHH-Fc (Fc fusion, bivalent VHH-Fc) EVKLVQSGGGLVQPGGSLRLSCAASGFIFSNYAMNWVRQAPGKGLEWVSGINSGGGDTRYADSVKGRFTVSRDNAKNTLYLQMNSLKPEDTGVYYCSKGPVSSYYGSGYDYRGQGTQVTVSS	4.8 nM								
NRCoV2-14 VHH-Fc (Fc fusion, bivalent VHH-Fc) EVQLVSSGGGLVQAGGSLRLSCEASGTTFSHYAVGWYRQAPGKQREWVASISVFGSTTYGGSVAGRFTISRDNDKNTVDLQMNSLKPEDTAVYYCHAVNADIGGDYWGQGTQVTVSS	18 nM								
NRCoV2-17 VHH-Fc (Fc fusion, bivalent VHH-Fc) EVQLQQSGGGLVQTGGSLRLSCAAAGSPFSQLAMSWYRQISGKERAWVASISPTGNRSYSKIAKGRFTISRDNAKNTVTLQMTSLKPEDTAAYICQAANVNGGDYWGQGTQVTVSS	10.6 nM								
NRCoV2-10 VHH-Fc (Fc fusion, bivalent VHH-Fc) QLQLQESGGGLVQPGGSLTLSCAASGNTFSRSNMHWYRQAPGAQREWVAAISSRGISTYAYSAKGRFTISRDNAKNTVSLQMNSLKPEDTAVYYCYAADDLGDYWGQGTQVTVSS	11.3 nM								
NRCoV2-15 VHH-Fc (Fc fusion, bivalent VHH-Fc) EVQLVSSGGGLVEAGGSLRLSCIASGSTSGRNTMGWFRQAPGKQREWVAIVSTSGATNYAGSVKGRFTLSRDNAKNAVYLQMNNLKPEDTAVYYCYAAYGGGGDYWGQGTQVTVSS	9.8 nM								
NRCoV2-MRed05 VHH-Fc (Fc fusion, bivalent VHH-Fc) EVQLVESGGGLVQPGGSLRLSCAASGFTLDYYAIGWFRQAPGKEREGVSCISSSDGSTLYADSVKGRFTISRDNAKNTVYLQMNSLKPEDTAVYYCATGPQAYYSGSYYFQCPQAGMDYWGKGTQVTVSS	4.2 nM								
NRCoV2-04 VHH-Fc (Fc fusion, bivalent VHH-Fc) AVQLVDSGGGLVQPGGSLRLSCAASGSPFSNVVMAWYRQAPGKQRERVAFISGGGIADYIMSVKGRFTISRDNAKNTVYLQMNSLKPEDTAVYYCWSSYESTWGQGTQVTVSS	21.9 nM								
NRCoV2-11 VHH-Fc (Fc fusion, bivalent VHH-Fc) EVQLVSSGGGLVQPGGSLRLSCAASGSSLDSYSVSWFRQAPGKEREWISFISRYYSSTYYTDSVKGRFTTSRDGDQKTVHLQMNSLKPEDTAVYYCAARSRDFSSPFSATDTYTSWGQGTQVTVSS	6.6 nM								
NRCoV2-SR01 VHH-Fc (Fc fusion, bivalent VHH-Fc) EVQLVQSGGGSVQAGGSLRLSCVASGFTFDNYAIGWFRQAPGKEREGVSCISGNGGVTIYADSVKGRFTISRDNAKNLVYLQMNSLKPEDTAVYYCAATGIRSTWSVYGCSRLAGPYDYWGQGTQVTVSS	3.1 nM								
NRCoV2-SR16 VHH (VHH) VHH: QVQLVQSAGGLVQAGGSLRLSCVVSGTTFSRYHMGWHRQAPGKQRDFVAGISTSGAVTYADSAKGRFTISRDNAKNTVYLEMNSLKLEDTALYYCNTGGWDYRSSTFIMGLNWGQGTQVTVSS		1.57 nM	0.000633 s⁻¹	404000 M⁻¹ s⁻¹	2.57 nM	0.00101 s⁻¹	395000 M⁻¹ s⁻¹	1.6 nM	2.6 nM
NRCoV2-MRed03 VHH (VHH) VHH: EVQLVESGGGLVQPGGSLRLSCAAIGFTLDYYAIGWFRQAPGKEREGVSCISSSDGSTYYADSVKGRFTISRDNAKNTVYLQMNSLKPEDTAVYYCATDAFATCDSWYAQIAQYDFRGQGTQVTVSS		0.364 nM	9.89e-05 s⁻¹	271000 M⁻¹ s⁻¹	0.672 nM	0.000143 s⁻¹	213000 M⁻¹ s⁻¹	0.36 nM	0.67 nM
NRCoV2-MRed06 VHH (VHH) VHH: EVQLVESGGGLVQAGGSLRLSCAASGFTLAYYAIGWFRQAPGKEREGVSCISSSDGSAHYADSVKGRFTISRDNAKNTVSLQMNSLKPEDTAVYYCATDSFSSCSDYESGMDFWGKGTQVTVSS		5.72 nM	0.0013 s⁻¹	227000 M⁻¹ s⁻¹	7.24 nM	0.00101 s⁻¹	139000 M⁻¹ s⁻¹	5.72 nM	7.24 nM
NRCoV2-MRed07 VHH (VHH) VHH: EVQLVESGGGLVQPGGSLTLSCAASGSIGPFNTMGWYRQAPGNQREPAAIITRGGVTNYADSVKGRFTISRDNAKNAVYLQMDSLKPDDTAVYYCYANYGWAIPYWGNGTQVTVSS		0.264 nM	0.00103 s⁻¹	3.9e+06 M⁻¹ s⁻¹	0.231 nM	0.000552 s⁻¹	2.38e+06 M⁻¹ s⁻¹	0.26 nM	0.23 nM
NRCoV2-S2A4 VHH (VHH) VHH: QVQLVQSGGGLVQAGGSLRLSCAVSGSPFRSNVMEWYRQAPGKQRELVASISTGGSRTYTDSVKGRFTISRDNAKNEAFLQMNSLKPEDTAVYYCHAAARDSHGIYLLDTWGQGTQVTVSS		9.52 nM	0.00236 s⁻¹	248000 M⁻¹ s⁻¹	15.3 nM	0.000898 s⁻¹	58800 M⁻¹ s⁻¹	9.5 nM	15.3 nM
NRCoV2-S2G3 VHH (VHH) VHH: QVQLVQSGGGSVQAGGSLRLSCAASGSTFGIFLMGWRRQAPGKQRELVAHITSGGATNYADSVKGRFTISRDNAKNTVYLQMNSLEPEDTAVYYCYTTKRDDASVYWGQGTQVTVSS		1.78 nM	0.00053 s⁻¹	298000 M⁻¹ s⁻¹	1.85 nM	0.000563 s⁻¹	304000 M⁻¹ s⁻¹	1.78 nM	1.85 nM
NRCoV2-MRed18 VHH (VHH) VHH: EVQLVESGGGLVQPGGSLRLSCAASTTVFGRNAMGWYRQAPGKERELVATVSDGGTPNYADSVKGRFTISRDNAKNTIYLQMNSLEPEDTAVYYCNYYNYYYGRNFWGQGTQVTVSS		12.9 nM	0.00493 s⁻¹	382000 M⁻¹ s⁻¹	6.48 nM	0.00239 s⁻¹	369000 M⁻¹ s⁻¹	12.9 nM	6.48 nM
NRCoV2-MRed19 VHH (VHH) VHH: EVQLVESGGGLVQPGGSLRLSCAASTIIFKGQTMGWFRQAPGNERELVATMTTSGSANYADSVKGRFTISRDNEKTVTLQMNSLKPEDTALYYCYMHSVYYGIDYWGKGTQVTVSS		20.2 nM	0.0037 s⁻¹	183000 M⁻¹ s⁻¹	8.07 nM	0.00104 s⁻¹	129000 M⁻¹ s⁻¹	20.2 nM	8.07 nM
NRCoV2-MRed20 VHH (VHH) VHH: EVQLVESGGGSVQAGGSLRLSCAASGLSFSSYDMGWFRQAPGKEREFVAAIRESGSGTYYADSVKGRFTISRDNAKNTVYLQVSSLKPEDTAVYTCAAKPPFYGSGTYSTPRAYLYWGQGTQVTVSS		0.55 nM	0.000153 s⁻¹	278000 M⁻¹ s⁻¹	0.455 nM	6.33e-05 s⁻¹	139000 M⁻¹ s⁻¹	0.55 nM	0.45 nM
NRCoV2-MRed25 VHH (VHH) VHH: EVQLVESGGGLVQAGGSLRLSCAASGHTFSRYGMGWFRQAPGKEREFVAAISWRGDSTYYRDSVNGRFTISRDNAKNTVYLGMNSLKPEDTAVYYCAAEMWGTATIVASRYTYWGQGTQVTVSS		0.283 nM	0.000289 s⁻¹	1.02e+06 M⁻¹ s⁻¹	1.6 nM	0.00329 s⁻¹	2.05e+06 M⁻¹ s⁻¹	0.28 nM	1.6 nM

— patent US20240270826A1 (NATIONAL RESEARCH COUNCIL OF CANADA, published 2024)
